Anti-infective test results gathered from many reports (values: NIAID ChemDB through PubChem).

All rows: tests on isolated targets; species: Hepatitis C virus; protein: NS3 protease; read-out: Ki

Two numbers with a dash give a range or band. Lines come from different laboratories, so protocols vary.

{"SMILES": "CC[C@H](NC(=O)[C@H](CC1CCCCC1)NC(=O)[C@@H](NC(=O)[C@H](CC(C)C)NC(=O)[C@@H](CCC(=O)O)NC(=O)[C@H](CC(=O)O)NC(C)=O)[C@H](C)CC)C(=O)/C=C/c1nccs1", "value": "0.32 µM"}
{"SMILES": "CC[C@@H](C=O)NC(=O)[C@@H]1C[C@@H](OCc2ccccc2)CN1C(=O)[C@@H](NC(=O)c1nccc2ccccc12)C(C)C", "value": "1–100 µM"}
{"SMILES": "CCC[C@H](NC(=O)[C@@H]1C[C@@H](Oc2cc(-c3ccccc3)nc3cc(OC)ccc23)C[C@H]1C(=O)N[C@H](C(=O)N[C@H](C(=O)NC)C1CCCCC1)C(C)(C)C)C(=O)O", "value": "1.7 µM"}
{"SMILES": "CC[C@@H](C=O)NC(=O)[C@@H]1C[C@@H](OC(=O)Nc2ccccc2OC)CN1C(=O)[C@@H](NC(=O)[C@@H](NC(=O)c1cnccn1)C(C)C)C(C)C", "value": "1–100 µM"}
{"SMILES": "CC[C@H](C)[C@H](NC(=O)[C@H](CC(C)C)NC(=O)[C@@H](CCC(=O)O)NC(=O)[C@H](CC(=O)O)NC(C)=O)C(=O)N[C@@H](CC1CCCCC1)C(=O)N[C@@H](CS)C(=O)O", "value": "1.54 µM"}
{"SMILES": "C=C[C@@H]1C[C@]1(NC(=O)[C@@H]1C[C@@H](Oc2cc(-c3ccccc3)nc3cc(OC)ccc23)C[C@H]1C(=O)N[C@H](C(=O)N[C@H](C(=O)N(C)C)C1CCCCC1)C(C)(C)C)C(=O)O", "value": "0.016 µM"}
{"SMILES": "CC[C@H](NC(=O)[C@H](CC1CCCCC1)NC(=O)[C@@H](NC(=O)[C@H](CC(C)C)NC(=O)[C@@H](CCC(=O)O)NC(=O)[C@H](CC(=O)O)NC(C)=O)[C@H](C)CC)C(=O)CCc1nccs1", "value": "1 µM"}
{"SMILES": "CC[C@@H](C=O)NC(=O)[C@@H]1C[C@@H](OC(=O)Nc2ccccc2)CN1C(=O)[C@@H](NC(=O)[C@@H](NC(=O)c1cnccn1)C(C)C)C(C)C", "value": "1–100 µM"}
{"SMILES": "CC(C)[C@H](NC(=O)[C@H](CCC(=O)O)NC(=O)[C@@H](N)CC(=O)O)C(=O)N[C@H](C(=O)N1CCC[C@H]1C(=O)NC1(B2O[C@@H]3CC4CC(C4(C)C)[C@]3(C)O2)CC1)C(C)C", "value": "1.6 µM"}
{"SMILES": "CC[C@H](NC(=O)[C@H](CC(C)C)NC(=O)[C@@H](NC(=O)[C@@H](NC(=O)c1cnccn1)C(C)C)C(C)C)C(=O)C(=O)NCc1ccccc1OC", "value": ">100 µM"}
{"SMILES": "CC[C@@H](C)[C@H](NC(=O)[C@H](CC(C)C)NC(=O)[C@@H](CCC(=O)O)NC(=O)[C@H](CC(=O)O)NOC(=O)CCC(=O)O)C(=O)N[C@@H](CC1CCCCC1)C(=O)NC1(C(=O)C(=O)O)CC1", "value": "0.098 µM"}
{"SMILES": "CC[C@@H](C=O)NC(=O)[C@@H]1C[C@@H](OC(=O)c2ccc(Cl)c(Cl)c2)CN1C(=O)[C@@H](NC(=O)[C@@H](NC(=O)c1cnccn1)C(C)C)C(C)C", "value": "1–100 µM"}
{"SMILES": "C=C[C@@H]1C[C@]1(NC(=O)[C@@H]1C[C@@H](Oc2cc(-c3ccccc3)nc3cc(OC)ccc23)C=C1C(=O)N[C@H](C(=O)N[C@H](C(=O)NC)C1CCCCC1)C(C)(C)C)C(=O)O", "value": "0.016 µM"}
{"SMILES": "CC[C@@H](C=O)NC(=O)[C@@H]1C[C@@H](OC(=O)Nc2ccccc2C(=O)CO)CN1C(=O)[C@@H](NC(=O)[C@@H](NC(=O)c1cnccn1)C(C)C)C(C)C", "value": "1–100 µM"}
{"SMILES": "CNC(=O)[C@@H](NC(=O)[C@@H](NC(=O)[C@@H]1C[C@H](Oc2cc(-c3ccccc3)nc3cc(OC)ccc23)C[C@H]1C(=O)N[C@@H](CC(F)F)C(=O)O)C(C)(C)C)C1CCCCC1", "value": "0.56 µM"}
{"SMILES": "CC(C)(C)NC(=O)N[C@H](C(=O)C1CC2C([C@H]1C(=O)N[C@H](CC1CCC1)C(=O)C(N)=O)C2(C)C)C(C)(C)C", "value": "3 µM"}
{"SMILES": "CN(C)C(=O)[C@@H](NC(=O)CNC(=O)C(=O)C(CCC1CC1)NC(=O)[C@@H]1[C@@H]2[C@H](CN1C(=O)[C@@H](NC(=O)OC(C)(C)C)C(C)(C)C)C2(C)C)c1ccccc1", "value": "0.0038 µM"}
{"SMILES": "CC[C@@H](C)[C@H](NC(=O)[C@H](CC(C)C)NC(=O)[C@@H](CCC(=O)O)NC(=O)[C@H](CC(=O)O)NOC(=O)CCC(=O)O)C(=O)N[C@@H](CC1CCCCC1)C(=O)NC1(C(=O)NS(=O)(=O)c2ccccc2)CC1", "value": "0.0038 µM"}
{"SMILES": "C=C[C@@H]1C[C@]1(NC(=O)[C@@H]1C[C@@H](Oc2cc(-c3ccccc3)nc3cc(OC)ccc23)CN1C(=O)[C@@H](NC(=O)[C@@H](NC(C)=O)C1CCCCC1)C(C)(C)C)C(=O)O", "value": "0.001 µM"}
{"SMILES": "CC[C@@H](C=O)NC(=O)[C@@H]1C[C@@H](OCc2cccc(C#N)c2)CN1C(=O)[C@@H](NC(=O)[C@@H](NC(=O)c1cnccn1)C(C)C)C(C)C", "value": "1–100 µM"}
{"SMILES": "CCC(NC(=O)[C@@H]1[C@H]2CC[C@@H](F)[C@H]2CN1C(=O)[C@@H](NC(=O)[C@@H](NC(=O)c1cnccn1)C(C)C)C(C)C)C(=O)C(=O)NC1CC1", "value": "0.3 µM"}
{"SMILES": "C=C[C@@H]1C[C@]1(NC(=O)[C@@H]1C[C@@H](Oc2cc(-c3ccccc3)nc3cc(OC)ccc23)C[C@H]1C(=O)N[C@H](C(=O)N[C@H](C(=O)NC)C1CCCCC1)C(C)(C)C)C(=O)O", "value": "0.022 µM"}

A second listing of 3 rows from above:

{"SMILES": "CC(C)[C@H](NC(=O)[C@H](CCC(=O)O)NC(=O)[C@@H](N)CC(=O)O)C(=O)N[C@H](C(=O)N1CCC[C@H]1C(=O)NC1(B2O[C@@H]3CC4CC(C4(C)C)[C@]3(C)O2)CC1)C(C)C", "value": "1.6 µM"}
{"SMILES": "CC[C@@H](C)[C@H](NC(=O)[C@H](CC(C)C)NC(=O)[C@@H](CCC(=O)O)NC(=O)[C@H](CC(=O)O)NOC(=O)CCC(=O)O)C(=O)N[C@@H](CC1CCCCC1)C(=O)NC1(C(=O)C(=O)O)CC1", "value": "0.098 µM"}
{"SMILES": "CC[C@@H](C=O)NC(=O)[C@@H]1C[C@@H](OC(=O)Nc2ccccc2OC)CN1C(=O)[C@@H](NC(=O)[C@@H](NC(=O)c1cnccn1)C(C)C)C(C)C", "value": "1–100 µM"}